From article PMC9794196, “Lassa virus glycoprotein nanoparticles elicit neutralizing antibody responses and protection” (Cell Host & Microbe, 2022)

Target: GPC-I53-50A (GPCysR4, Josiah strain, genetically fused to I53-50A.1NT1) (Lassa virus, Josiah (lineage IV), R207C | E329P | L258R | L259R | G360C)

B1: LAVA01 Fab (Fab, V domains shown)
VH: NSQLEESGGGLVQTEGSLTLTCTASGFSFSNNDYICWVRQAPGKGLEWIGCIYSDYGFSFFATWAKDRFSGSKTSSTTVTLQGTGLTAADTATYFCVKTYVSRFGYYIRWDYFDLWGPGTLVIVSS
VL: DQVMTQTPSPVSAAVGGTVSISCQSSKSVHNENFLSWYQQKPGQRPKLLIYRASTLASGVPSRFKGSGSGTQFTLTISDVQCDDAATYYCAGGDIQSSDDVFGGGTEVVVQ
stoichiometry N: 3
